Reference: patent US20260224597A1, “METHODS FOR ACTIVATING IMMUNE CELLS TO KILL BACTERIA” (The Texas A&M University System, priority 2023, published 2026)

Columns and labels:
[1] = test system: L. monocytogenes; experiment: Bacterial survival assay: ingested L. monocytogenes in human macrophages; type: cell-based, Listeria monocytogenes; conditions: GM-CSF-generated macrophages, 48 hours of infection, 10 and 1000 nM
[2] = test system: human macrophages; conditions: 24 hours, 1000 nM
[3] = test system: Mtb; experiment: Bacterial survival assay: ingested Mtb in human macrophages; conditions: for number of viable Mtb compared to control: 72 hours of infection, inhibitor re-added at 24 and 48 hours
[4] = test system: L. pneumophila; experiment: Bacterial survival assay: ingested L. pneumophila in human macrophages; type: cell-based, Legionella pneumophila; conditions: GM-CSF-generated macrophages, 48 hours of infection, 100 and 1000 nM

## (1R*,2S*)-4-[2-Chloro-6-(methylamino)-9H-purin-9-yl]-2-(phosphonooxy)bicyclo[3.1.0]hexane-1-methanol dihydrogen phosphate ester diammonium salt
[1]
  viability of ingested L. monocytogenes compared to control: reduced the viability
[2]
  metabolic activity of macrophages infected with Mtb: did not significantly change
[3]; GM-CSF human macrophages, after 4 hours of infection, 1000 nM inhibitor
  number of ingested Mtb compared to control: did not significantly alter
[3]; GM-CSF macrophages, 100 nM and higher
  number of viable Mtb compared to control: reduced the number of viable Mtb
[3]; GM-CSF-generated human macrophages, 48 hours of infection, concentrations at and above 1 nM
  viability of ingested Mtb compared to control: reduced the viability
[3]; M-CSF macrophages, 10 nM and higher
  number of viable Mtb compared to control: reduced the number of viable Mtb
[4]
  viability of ingested L. pneumophila compared to control: reduced the viability
